Tests used:
[1] = molecular target: T1, FadD1 (Pseudomonas aeruginosa PAO1) (UniProt Q9HYU4); test: EMSA; settings: recombinant protein, residues 1-562, protein details: His (Ni-NTA, TEV removal described), label: 3' biotin, probe letters rebuilt from the primers and the genome
T1 sequence: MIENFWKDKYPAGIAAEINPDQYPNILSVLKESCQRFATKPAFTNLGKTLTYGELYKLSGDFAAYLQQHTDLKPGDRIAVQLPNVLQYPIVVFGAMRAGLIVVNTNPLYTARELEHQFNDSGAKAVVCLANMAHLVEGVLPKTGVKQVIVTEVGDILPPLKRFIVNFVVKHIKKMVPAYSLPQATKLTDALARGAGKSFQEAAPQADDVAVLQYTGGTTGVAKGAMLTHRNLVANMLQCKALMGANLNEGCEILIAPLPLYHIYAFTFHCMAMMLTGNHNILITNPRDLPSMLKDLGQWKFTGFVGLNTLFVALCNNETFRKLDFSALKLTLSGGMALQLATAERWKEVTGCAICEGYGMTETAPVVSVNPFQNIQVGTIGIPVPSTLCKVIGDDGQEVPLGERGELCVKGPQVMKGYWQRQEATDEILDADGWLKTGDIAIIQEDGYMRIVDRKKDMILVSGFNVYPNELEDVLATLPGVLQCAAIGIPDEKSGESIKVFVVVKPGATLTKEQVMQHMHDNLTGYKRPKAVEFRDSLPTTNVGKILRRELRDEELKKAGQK

[2] = molecular target: FadD1 AMP-B domain (Pseudomonas aeruginosa PAO1) (UniProt Q9HYU4); test: EMSA; settings: recombinant protein; residues 1-470; protein details: His; label: 3' biotin; probe letters rebuilt from the primers and the genome

Row | Sequence | binding result [1] | binding result ([1]; 20 uM BDSF (enhances binding)) | binding result ([1]; cis-DA (enhances binding)) | binding result [2]
1 | AGAAGCTGCGCCGACCGGTGGTCAACGACCAGGTGCTGGCGCCGGTCTTCCTCGAGCAGGCCGAGGCCGTGCGCAAGGGCGACCAGGTGGTGATCCTCGCACGCACTGCCACCATCAACGTCAAGATGCCCGGCGAGGCGCTGTCCGATGGCGCCCCGGGCCAGCAGATCCGCGTGCGCAACCTGCGCTCGCAGCGGATAATCAAGGCCCGCGTGATAGAACCCGGCACGGTCGAGGTGAATATGTAGAGGGAAAGCCGTGGCCGGTAGCGCTGGCGCTACCCCGGCGGGTTTCTCTAAACTGGGAAACGACGCACGAAAATAAGTCCTAAAGTTTTTCAAGCCTTCGCCGAAAAGCTAGGCAAGCGTCCAATACCTTCGAGGTTTACAACCATGGTCATCGACTTCAACCGGCTGAAT (double strand) [flgM promoter] | binds |  |  | 
2 | CGTAGAAGCTGCCGAATAAGGCATCTGCTGCACAAGAAACCGGGCCCAGGCCCGGTTTTTTTATTACCTGCCTTAAAGTTTTTATCTATCGGCTCGCTTTCTTTAATAAATTGGATTGTAGGAGGGCTGTCATTCATCCTTAACCTGCTTTTACGAAAAGCTACGTTCGGATAAGCGAGATCAATGCAAAGGGCGCTTGGTTCAGCCGACAGGTTGTCTTCCGCCAATCCCTGGTCCACGCTGATGATTTCCGTGTAGCCGCTTCGCTTCATAGCACGTTAGCCGTTGAGGAGAGAGTAAATGGAAGAGAAGACCCGCCTGACCACTGCC (double strand) [katA promoter] | binds |  |  | 
3 | CTGGGTATTCAGTTCGCATAAAATGTGATCTAGATCACATTTAAACGTTTGCTTACCCTCTAGGACGGGTATCGTACTAGGTGCATCAAACGCTGCGGTCTATTGTTAAGTGGGACTGAAATGTGCCTTTCCGGCACAACGCCAACTCTATAGAGTGGGCTGACTGGACATCTTCAGGGGTCGTCGGGCACGGGCGCATGCGCCTCGGCAGGAAGCCGGGATTCTCGGACTGCCGTACAACGTGCCGGATATCGGGTGCCGAATCCATATTTGGCTGATTGGTTAATAGTTTAAGAAGAACGTAGCGCTATGGCCTTGGTTGACGGTTTTCTTGAGCTG (double strand) [lasR promoter] | binds | binds | binds | binds
